The record followed here is patent US11793880B2 (Seagen Inc., priority 2015, dated 2023).

This series is described as follows: general procedure: solution-phase peptide synthesis; HATU/DIPEA. The following applies: for conjugation yield: conjugation step.

“(2S,4R)-4-(2-((1R,3R)-1-(allyloxy)-3-((2S,3S)—N,3-dimethyl-2-((R)-1-methylpiperidine-2-carboxamido)pentanamido)-4-methylpentyl)thiazole-4-carboxamido)-2-methyl-5-phenylpentanoic acid” displayed a step yield (late stage modification step) of 92%.

“(2R)-1-(3-((S)-44-((S)-3-amino-2-(2,5-dioxo-2,5-dihydro-1H-pyrrol-1-yl)propanamido)-38,45-dioxo-2,5,8,11,14,17,20,23,26,29,32,35-dodecaoxa-39,46-diazanonatetracontanamido)-4-(((2S,3R,4S,5S,6S)-6-carboxy-3,4,5-trihydroxytetrahydro-2H-pyran-2-yl)oxy)benzyl)-2-(((2S,3S)-1-(((1R,3R)-1-(4-(((2R,4S)-4-carboxy-1-phenylpentan-2-yl)carbamoyl)thiazol-2-yl)-4-methyl-1-((2-methylallyl)oxy)pentan-3-yl)(methyl)amino)-3-methyl-1-oxopentan-2-yl)carbamoyl)-1-methylpiperidin-1-ium” showed a step yield (late stage modification step) of 94%.

In the case of “(2S,4R)-4-(2-((1R,3R)-3-((2S,3S)—N,3-dimethyl-2-((R)-1-methylpiperidine-2-carboxamido)pentanamido)-4-methyl-1-((2-methylallyl)oxy)pentyl)thiazole-4-carboxamido)-2-methyl-5-phenylpentanoic acid”, the step yield (late stage modification step) worked out at 93%.

The substance Fmoc-Lys(PEG12)-GlucQ-Tub(OEt) showed a conjugation yield of 67%.

Substance Fmoc-Lys(PEG12)-GlucQ-Tub gave a conjugation yield of 70%.

Consider “mDPR(Boc)-Lys(PEG12)-GlucQ-Tub(O-iso-allyl)”, for which the conjugation yield was determined as 61%.

Regarding “(2S,4R)-allyl 4-(2-((1R,3R)-3-((2S,3S)—N,3-dimethyl-2-((R)-1-methylpiperidine-2-carboxamido)pentanamido)-4-methyl-1-(prop-2-yn-1-yloxy)pentyl)thiazole-4-carboxamido)-2-methyl-5-phenylpentanoate”, the step yield (coupling step) was 93%.

Where the note is “coupling step”, Fmoc-Gluc(Allyl)Q-Tub(iso-O-Allyl) registered a step yield of 13%.

For H-Lys(PEG12)-GlucQ-Tub, the step yield (late stage modification step) is given as 82%.

Under “coupling step”, “(2S,4R)-allyl 4-(2-((1R,3R)-3-((2S,3S)—N,3-dimethyl-2-((R)-1-methylpiperidine-2-carboxamido)pentanamido)-4-methyl-1-((2-methylallyl)oxy)pentyl)thiazole-4-carboxamido)-2-methyl-5-phenylpentanoate” gave a step yield of 62%.

As to “(2S,4R)-allyl 4-(2-((1R,3R)-1-(butyryloxy)-3-((2S,3S)—N,3-dimethyl-2-((R)-1-methylpiperidine-2-carboxamido)pentanamido)-4-methylpentyl)thiazole-4-carboxamido)-2-methyl-5-phenylpentanoate”, the step yield (coupling step) amounted to 98%.

For the setting “late stage modification step”, Val-Ala-PAB-TubM came in with a step yield of 63%.

As for “Fmoc-Lys(PEG12)-GlucQ-Tub(O-methylpropene)”, the conjugation yield came out at 56%.

As for Fmoc-Gluc(Allyl)Q-TubM-OAllyl, the step yield (coupling step) was 46%.

Consider H-Lys(PEG12)-GlucQ-Tub(OEt), for which the step yield (late stage modification step) came to 86%.

The substance “(2S,4R)-allyl 4-(2-((1R,3R)-3-((2S,3S)—N,3-dimethyl-2-((R)-1-methylpiperidine-2-carboxamido)pentanamido)-4-methyl-1-(propionyloxy)pentyl)thiazole-4-carboxamido)-2-methyl-5-phenylpentanoate” had a step yield (coupling step) of 97%.

In the case of mDPR(Boc)-Lys(PEG12)-ValGluPABQ-Tub, the conjugation yield was determined as 46%.

Substance H-Lys(PEG12)-GlucQ-Tub-(O-iso-allyl) gave a step yield (late stage modification step) of 82%.

Fmoc-GlucQ-Tub(O-methylpropene)-OAllyl showed a step yield (coupling step) of 49%.

For “(2S,4R)-4-(2-((1R,3R)-1-(benzyloxy)-3-((2S,3S)—N,3-dimethyl-2-((R)-1-methylpiperidine-2-carboxamido)pentanamido)-4-methylpentyl)thiazole-4-carboxamido)-2-methyl-5-phenylpentanoic acid”, the step yield (late stage modification step) was determined as 96%.

Consider Boc-Val-Glu(OtBu)-PABQ-Tub-OAllyl, for which the conjugation yield is reported as 85%.

Tub(OEt)-OAllyl came in with a step yield (coupling step) of 71%.

For the setting “late stage modification step”, “(2R)-2-(((2S,3S)-1-(((1R,3R)-1-acetoxy-1-(4-(((2R,4S)-4-carboxy-1-phenylpentan-2-yl)carbamoyl)thiazol-2-yl)-4-methylpentan-3-yl)(methyl)amino)-3-methyl-1-oxopentan-2-yl)carbamoyl)-1-(3-(3-((S)-3-amino-2-(2,5-dioxo-2,5-dihydro-1H-pyrrol-1-yl)propanamido)propanamido)-4-(((2S,3R,4S,5S,6S)-6-carboxy-3,4,5-trihydroxytetrahydro-2H-pyran-2-yl)oxy)benzyl)-1-methylpiperidin-1-ium” registered a step yield of 81%.

Consider H-Lys(PEG12)-ValGluPABQ-Tub, for which, for the setting “late stage modification step”, the step yield is 86%.

The substance Fmoc-Lys(PEG12)-GlucQ-Tub-(O-iso-allyl) gave a conjugation yield of 13%.

For “(2S,4R)-allyl 4-(2-((1R,3R)-3-((2S,3S)—N,3-dimethyl-2-((R)-1-methylpiperidine-2-carboxamido)pentanamido)-4-methyl-1-((3-methylbutanoyl)oxy)pentyl)thiazole-4-carboxamido)-2-methyl-5-phenylpentanoate”, for the setting “coupling step”, the step yield is 94%.

Substance “mDPR(Boc)-Lys(PEG12)-GlucQ-Tub(O-methylpropene)” returned a conjugation yield of 63%.

Consider “(2S,4R)-allyl 4-(2-((1R,3R)-3-((2S,3S)—N,3-dimethyl-2-((R)-1-methylpiperidine-2-carboxamido)pentanamido)-1-((3,3-dimethylbutanoyl)oxy)-4-methylpentyl)thiazole-4-carboxamido)-2-methyl-5-phenylpentanoate”, for which the step yield (coupling step) is 94%.

Boc-Val-Ala-PAB-TubM-OtBu registered a conjugation yield of 58%.

Consider “(2S,4R)-allyl 4-(2-((1R,3R)-1-(benzyloxy)-3-((2S,3S)—N,3-dimethyl-2-((R)-1-methylpiperidine-2-carboxamido)pentanamido)-4-methylpentyl)thiazole-4-carboxamido)-2-methyl-5-phenylpentanoate”, for which the step yield (coupling step) came to 75%.

Take H-Lys(PEG12)-GlucQ-Tub(OPr): the step yield (late stage modification step) turned out to be 71%.

In turn, “(2S,4R)-allyl 4-(2-((1R,3R)-3-((2S,3S)—N,3-dimethyl-2-((R)-1-methylpiperidine-2-carboxamido)pentanamido)-1-(isobutyryloxy)-4-methylpentyl)thiazole-4-carboxamido)-2-methyl-5-phenylpentanoate” registered a step yield (coupling step) of 94%.

In the case of “(2S,4R)-4-(2-((1R,3R)-3-((2S,3S)—N,3-dimethyl-2-((R)-1-methylpiperidine-2-carboxamido)pentanamido)-4-methyl-1-(prop-2-yn-1-yloxy)pentyl)thiazole-4-carboxamido)-2-methyl-5-phenylpentanoic acid”, the step yield (late stage modification step) turned out to be 55%.

Take mDPR(Boc)-Lys(PEG12)-GlucQ-Tub: the conjugation yield is listed as 61%.

As to Fmoc-GlucQ-Tub(OPr)-OAllyl, the conjugation yield is reported as 68%.

For the substance Fmoc-Lys(PEG12)-GlucQ-Tub(OPr), the conjugation yield is 73%.

With Tub(OMe)-OAllyl, the step yield (coupling step) came out at 71%.

Where the note is “late stage modification step”, “(2R)-2-(((2S,3S)-1-(((1R,3R)-1-acetoxy-1-(4-(((2R,4S)-4-carboxy-1-phenylpentan-2-yl)carbamoyl)thiazol-2-yl)-4-methylpentan-3-yl)(methyl)amino)-3-methyl-1-oxopentan-2-yl)carbamoyl)-1-(3-((S)-44-((S)-3-amino-2-(2,5-dioxo-2,5-dihydro-1H-pyrrol-1-yl)propanamido)-38,45-dioxo-2,5,8,11,14,17,20,23,26,29,32,35-dodecaoxa-39,46-diazanonatetracontanamido)-4-(((2S,3R,4S,5S,6S)-6-carboxy-3,4,5-trihydroxytetrahydro-2H-pyran-2-yl)oxy)benzyl)-1-methylpiperidin-1-ium” showed a step yield of 97%.

Turning to Fmoc-Lys(PEG12)-ValGluPABQ-Tub, the conjugation yield is reported as 75%.

Tub(OPr)-OAllyl yielded a step yield (coupling step) of 53%.

For the setting “late stage modification step”, “(2S,4R)-tert-butyl 4-(2-((1R,3R)-1-acetoxy-3-((2S,3S)—N,3-dimethyl-2-((R)-1-methylpiperidine-2-carboxamido)pentanamido)-4-methylpentyl)thiazole-4-carboxamido)-2-methyl-5-phenylpentanoate” gave a step yield of 32%.

Regarding mDPR(Boc)-Lys(PEG12)-GlucQ-Tub(OPr), the conjugation yield is reported as 74%.
